{
  "source": "paper PMC10764318",
  "data": [
    {"molecular_target": "SARS-CoV-2 RBD (331-527) (SARS-CoV-2) (UniProt P0DTC2)", "test": "BLI", "units": {"EC50": "mg/L"}, "values": [
      {"substance": "WRAIR-5001 (from UniProt P01857)", "EC50": "> 100"},
      {"substance": "WRAIR-5004 (from UniProt P01857)", "EC50": "> 100"},
      {"substance": "WRAIR-5005 (from UniProt P01857)", "EC50": 2.75},
      {"substance": "WRAIR-5011 (from UniProt P01857)", "EC50": "> 100"},
      {"substance": "WRAIR-5020 (from UniProt P01857)", "EC50": 4.29},
      {"substance": "WRAIR-5021 (from UniProt P01857)", "EC50": 2.44}
    ]}
  ]
}
